From publication PMC4895005, “Auto-Assembling Detoxified Staphylococcus aureus Alpha-Hemolysin Mimicking the Wild-Type Cytolytic Toxin” (2016)

Target: HlaPSGS (alpha-hemolysin with the stem domain replaced by the linker PSGS), Staphylococcus aureus NCTC8325 (UniProt Q2G1X0)
Experiment: SEC

HlaPSGS (alpha-hemolysin with the stem domain replaced by the linker PSGS)
stoichiometry N: 7
